From PubChem BioAssay AID565 (University of Pittsburgh Molecular Library Screening Center, 2006)
This is a selection; strong and weak results do not stand in their true shares. Calls of active or inactive are those of the source. Rule as the data show it: active = inhibition above about 50%; inactive = the rest.

target: Gag-Pol polyprotein (Human immunodeficiency virus type 1 group M subtype B (isolate HXB2)) (UniProt P04585); assay: HIV-1 RT RNase H inhibitors, primary screen, biochemical, fluorescence (AID 565); settings: RT-RNase H RNA/DNA duplex cleavage, at 10 µM, stronger effect = higher value

SMILES	inhibition
COC(=O)c1cc2c(s1)N=C(c1ccccc1)N(C)P2(=O)N1CCOCC1 (stereo not given)	inactive: -3.78%
O=P1(Nc2nc3ccc(Cl)cc3s2)COc2ccccc2O1 (stereo not given)	inactive: 2.12%
O=P(Nc1nccs1)(c1ccccc1)c1ccccc1	inactive: 0.49%
c1nnnn1CCn1cnnn1	inactive: -8.91%
O=C(OC1CN2CCC1CC2)c1cccc(Cl)c1 (stereo not given)	inactive: 2.68%
CCc1nc2c(n1)c1c(non1O)c1c2no[n+]1[O-]	inactive: -8.86%
Cc1c2non([O-])c-2c(C)[n+](=O)[n+]1[O-]	inactive: 23.8%
O=C(OC1CN2CCC1CC2)C12CC3CC(CC(C3)C1)C2 (stereo not given)	inactive: -6.86%
COP1(=S)c2c(C)nn(CCC#N)c2N=C(c2ccc(F)cc2)N1C (stereo not given)	inactive: -15.1%
O=C(COc1ccccc1)OC1CN2CCC1CC2 (stereo not given)	inactive: -1.13%
O=P1(Nc2ncccn2)COc2ccccc2OC1	inactive: 2.28%
O=P1(Nc2ccc(Br)cn2)COc2ccccc2OC1	inactive: 2.5%
Cc1ccc(OCC(=O)OC2CN3CCC2CC3)cc1 (stereo not given)	inactive: -5.47%
Cc1nn(-c2ccccc2)c2c1P(=O)(N1CCOCC1)N(C)C(c1ccccc1)=N2 (stereo not given)	inactive: 3.23%
O=P1(Nc2ccccn2)COc2ccccc2OC1	inactive: -4.82%
Clc1n[nH]nc1-c1nn[nH][15n]1	inactive: -14.5%
Cc1cccc(OCC(=O)OC2CN3CCC2CC3)c1 (stereo not given)	inactive: -8.27%
CCOP1(=S)c2c(C)nn(CCC#N)c2N=C(c2ccc(F)cc2)N1C (stereo not given)	active: 73.4%
CCOP1(=S)c2c(C)nn(CCC#N)c2N=C(c2ccccc2F)N1C (stereo not given)	inactive: -15.7%
O=P(Nc1nccs1)(c1ccccc1)c1nc2ccccc2s1 (stereo not given)	active: 77.3%
